Measured values: patent US8785655B2, “Ionic liquid solvents” (Dublin City University, priority 2009, dated 2014)
Where “and” joins values, the source holds several entries; their conditions need not be identical. Identical values can stand only once.

System: wastewater microorganisms
Assay: CO2 Headspace Test (ISO 14593), biodegradation

CCCCCCCCOS(=O)(=O)[O-].CCOCCOC(=O)C(C)OC(=O)Cn1cc[n+](C)c1 (centres unmarked) [KG172, RS-3-methyl-1-[1-(ethoxyethoxycarbonyl)-1-methylmethoxycarbonylmethyl]imidazolium octyl sulphate]
% biodegradation (day 0): 0%
% biodegradation (day 6): 55%
% biodegradation (day 14): 64%
% biodegradation (day 21): 69%
% biodegradation (day 28): 69%

CCCCCCCCOS(=O)(=O)[O-].CCCCCOC(=O)[C@@H](OC(=O)Cn1cc[n+](C)c1)c1ccccc1 [KG302, S-3-methyl-1-[1-(pentoxycarbonyl)-1-phenylmethoxycarbonylmethyl]imidazolium octyl sulphate]
% biodegradation (day 0): 0%
% biodegradation (day 6): 66%
% biodegradation (day 14): 76%
% biodegradation (day 21): 81%
% biodegradation (day 28): 79%

CCCCCCCCOS(=O)(=O)[O-].CCCCCOC(=O)C(OC(=O)Cn1cc[n+](C)c1)c1ccccc1 (centres unmarked) [KG304, RS-3-methyl-1-[1-(pentoxycarbonyl)-1-phenylmethoxycarbonylmethyl]imidazolium octyl sulphate]
% biodegradation (day 0): 0%
% biodegradation (day 6): 64%
% biodegradation (day 14): 78%
% biodegradation (day 21): 79%
% biodegradation (day 28): 82%

CCCCCCCCOS(=O)(=O)[O-].CCOCCOC(=O)[C@@H](OC(=O)Cn1cc[n+](C)c1)c1ccccc1 [KG305, S-3-methyl-1-[1-(ethoxyethoxycarbonyl)-1-phenylmethoxycarbonylmethyl]imidazolium octyl sulphate]
% biodegradation (day 0): 0%
% biodegradation (day 6): 73%
% biodegradation (day 14): 77%
% biodegradation (day 21): 85%
% biodegradation (day 28): 83%

CCCCCCCCOS(=O)(=O)[O-].COC(=O)C(C)OC(=O)Cn1cc[n+](C)c1 (centres unmarked) [KG 162, RS-3-methyl-1-[1-(methoxycarbonyl)-1-methylmethoxycarbonylmethyl]imidazolium octyl sulphate]
% biodegradation (day 0): 0%
% biodegradation (day 6): 46%
% biodegradation (day 14): 57%
% biodegradation (day 21): 61%
% biodegradation (day 28): 64%

CCCCCCCCOS(=O)(=O)[O-].CCCOC(=O)C(C)OC(=O)Cn1cc[n+](C)c1 (centres unmarked) [KG 166, RS-3-methyl-1-[1-(propoxycarbonyl)-1-methylmethoxycarbonylmethyl]imidazolium octyl sulphate]
% biodegradation (day 0): 0%
% biodegradation (day 6): 50%
% biodegradation (day 14): 63%
% biodegradation (day 21): 66%
% biodegradation (day 28): 67%

CCCCCCCCOS(=O)(=O)[O-].CCCCCOC(=O)C(C)OC(=O)Cn1cc[n+](C)c1 (centres unmarked) [KG 170, RS-3-methyl-1-[1-(pentoxycarbonyl)-1-methylmethoxycarbonylmethyl]imidazolium octyl sulphate]
% biodegradation (day 0): 0%
% biodegradation (day 6): 52%
% biodegradation (day 14): 65%
% biodegradation (day 21): 72%
% biodegradation (day 28): 72%

CCCCCCCCOS(=O)(=O)[O-].CCCCOC(=O)[C@@H](OC(=O)Cn1cc[n+](C)c1)c1ccccc1 [KG 306, S-3-methyl-1-[1-(butoxycarbonyl)-1-phenylmethoxycarbonylmethyl]imidazolium octyl sulphate]
% biodegradation (day 0): 0%
% biodegradation (day 6): 66%
% biodegradation (day 14): 75%
% biodegradation (day 21): 83%
% biodegradation (day 28): 82%

CCCCCCCCOS(=O)(=O)[O-].CCCCOC(=O)C(OC(=O)Cn1cc[n+](C)c1)c1ccccc1 (centres unmarked) [KG 308, RS-3-methy1-1-[1-(butoxycarbonyl)-1-phenylmethoxycarbonylmethyl]imidazolium octyl sulphate]
% biodegradation (day 0): 0%
% biodegradation (day 6): 62%
% biodegradation (day 14): 71%
% biodegradation (day 21): 78%
% biodegradation (day 28): 78%

CCCCCCCCCCCCOS(=O)(=O)[O-].[Na+] [SDS, Sodium n-dodecyl sulfate, reference compound]
% biodegradation (day 0): 0%
% biodegradation (day 6, sulfate): 81% and 84%
% biodegradation (day 14, sulfate): 88% and 87%
% biodegradation (day 21): 90%
% biodegradation (day 28, sulfate): 92% and 88%

R-3-methyl-1-[1-(ethoxyethoxycarbonyl)-1-methylmethoxycarbonylmethyl]imidazolium octyl sulphate [KG173]
% biodegradation (day 0): 0%
% biodegradation (day 6): 59%
% biodegradation (day 14): 69%
% biodegradation (day 21): 74%
% biodegradation (day 28): 74%

R-3-methyl-1-[1-(ethoxyethoxycarbonyl)-1-phenylmethoxycarbonylmethyl]imidazolium octyl sulphate [KG301]
% biodegradation (day 0): 0%
% biodegradation (day 6): 63%
% biodegradation (day 14): 73%
% biodegradation (day 21): 78%
% biodegradation (day 28): 80%

R-3-methyl-1-[1-(methoxycarbonyl)-1-methylmethoxycarbonylmethyl]imidazolium octyl sulphate [KG 163]
% biodegradation (day 0): 0%
% biodegradation (day 6): 49%
% biodegradation (day 14): 60%
% biodegradation (day 21): 63%
% biodegradation (day 28): 67%

R-3-methyl-1-[1-(pentoxycarbonyl)-1-methylmethoxycarbonylmethyl]imidazolium octyl sulphate [KG171]
% biodegradation (day 0): 0%
% biodegradation (day 6): 54%
% biodegradation (day 14): 67%
% biodegradation (day 21): 70%
% biodegradation (day 28): 71%

R-3-methyl-1-[1-(pentoxycarbonyl)-1-phenylmethoxycarbonylmethyl]imidazolium octyl sulphate [KG303]
% biodegradation (day 0): 0%
% biodegradation (day 6): 62%
% biodegradation (day 14): 72%
% biodegradation (day 21): 77%
% biodegradation (day 28): 79%

R-3-methyl-1-[1-(propoxycarbonyl)-1-methylmethoxycarbonylmethyl]imidazolium octyl sulphate [KG 167]
% biodegradation (day 0): 0%
% biodegradation (day 6): 51%
% biodegradation (day 14): 62%
% biodegradation (day 21): 69%
% biodegradation (day 28): 69%
